Test results as given in patent US5166348A, “Bornyl and isobornyl esters of carboxylic acids of condensed tetrahydroquinoxalines” (Uralsky politekhnichesky institut, priority 1989, dated 1992).

System: influenza virus A, A(Leningrad)23/81/HON1/
Test: sensitivity of influenza virus A strain A(Leningrad)23/81/HON1/ in chick embryos
Format: in vivo
Details: for Virus titres (lg EID50): 1 mg/embryo; for log reduction at 1 mg/embryo: unidentified influenza virus, 48 h, read-out: Titre difference in control and experiment (lg EID50)

SMILES | Virus titres (lg EID50) | log reduction at 1 mg/embryo
CC1=C(C(=O)OC2CC3CCC2(C)C3(C)C)C2Nc3ccccc3N(C)C2O1 (stereo not shown) [compound 1a, isobornyl ester of 2,9-dimethyl-3a,4,9,9a-tetrahydrofuro [2,3-b] quinoxaline-3-carboxylic acid] | 3.0 | 1.75
CC(N)C12CC3CC(CC(C3)C1)C2 (stereo not shown) [remantadine, reference compound] | 4.5 | 0.25
